From US8022103B2, “Ester prodrugs of prostratin and related phorbol compounds” (Salvia Sciences, Inc., priority 2005, dated 2011)

Columns and labels:
Type in all cases: cell-based
[1] = test system: HIV-1IIIB; assay: HIV-1 antiviral cytoprotection assay in CEM-SS cells; conditions: TC50/IC50, HIV-1IIIB
Protocol: Antiviral efficacy of SA-101A and SA-101B compounds were evaluated in an HIV 1 antiviral cytoprotection assay using CEM-SS cells and the laboratory adapted HIV 1IIIB virus strain.
Compound preparation. Compounds SA-101A and SA-101B were prepared in powder form and solubilized in DMSO and stored at −20° C. AZT (Sigma), solubilized in sterile H2O, was used as a positive antiviral control and was stored at 4° C. The compounds were evaluated at a high test concentration of 500 μg/mL. AZT was run in parallel at a concentration of 500 nM.
Cell Preparation. CEM-SS cells were passaged in T-75 flasks prior to use in the antiviral assay. On the day preceding the assay, the cells were split 1:2 to assure they were in an exponential growth phase at the time of infection. Total cell and viability quantification was performed using a hemacytometer and trypan blue exclusion. Cell viability was greater than 95% for the cells to be utilized in the assay. […]
Virus Preparation. […] The virus was resuspended and diluted into tissue culture medium such that the amount of virus added to each well in a volume of 50 μl was the amount determined to give approximately 90% cell killing at 6 days post-infection.
MTS Staining for Cell Viability. At assay termination, the assay plates were stained with the soluble tetrazolium-based dye MTS (Cell Titer Reagent Promega) to determine cell viability and quantify compound toxicity. […]

[2] = test system: HIV-1Ba-L; assay: Anti-HIV efficacy in human monocyte/macrophages (p24 ELISA); conditions: TC50/IC50, HIV-1Ba-L
Protocol: SA-101A and SA-101B were tested for antiviral activity against HIV-1 virus in peripheral blood monocytes/macrophages. Monocytes/macrophages were derived from normal HIV-1 negative donors, and cultured under conditions which promote cell survival and HIV replication. Fresh human blood was obtained commercially from Biological Specialty Corporation (Colmar, Pa.). The low passage, monocytropic, clinical isolate HIV-1Ba-L (Subtype B, R5) was obtained from the NIAID AIDS Research and Reference Reagent Program. A pre-titered aliquot of HIV 1Ba-L was removed from the freezer (−80° C.) and thawed rapidly to room temperature in a biological safety cabinet immediately before use. Phytohemagglutinin (PHA-P) was obtained from Sigma (St. Louis, Mo.) and recombinant IL-2 was obtained from R&D Systems Inc. (Minneapolis, Minn.).
Compound preparation: Compounds SA-101A and SA-101B were in powder form and solubilized in DMSO prior to use. AZT (Sigma), solubilized in sterile dH2O, was used as the positive antiviral control. The compounds were tested at a 100 μg/mL high-test concentration; AZT was tested at a 1,000 ηM high-test concentration. […]
Anti-HIV efficacy evaluation in human monocyte/macrophages. […] At assay termination, virus replication was measured by collecting cell-free supernatant samples, which were analyzed for HIV p24 antigen content using a commercially available p24 ELISA assay (Coulter). […]

[3] = test system: HIV-1Ba-L; assay: PBMC antiviral assay, HIV-1Ba-L; conditions: TC50/IC50, HIV-1Ba-L, human PBMCs
Protocol: Compounds SA-101A and SA-101B were tested for antiviral activity against HIV-1 in peripheral blood mononuclear cells (PBMC) acutely infected with the HIV-1 isolates. PBMCs were derived from normal HIV-1 negative donors, and cultured under conditions which promote cell survival and HIV replication. Fresh human blood was obtained commercially from Biological Specialty Corporation (Colmar, Pa.). The low passage clinical isolates HIV-1Ba-L, HIVIIIB, and SIVmac251 were from the NIAID AIDS Research and Reference Reagent Program. Immediately before use, pre-titered aliquot of the viruses were removed from storage in a freezer (−80° C.) and thawed rapidly to room temperature in a biological safety cabinet. Phytohemagglutinin (PHA-P) was obtained from Sigma (St. Louis, Mo.) and recombinant IL-2 was obtained from R&D Systems Inc. (Minneapolis, Minn.). […]
PMBC assay. […] Pooling (mixing) of mononuclear cells from more than one donor is used to minimize the variability observed between individual donors, which results from quantitative and qualitative differences in HIV infection and overall response to the PHA and IL-2 of primary lymphocyte populations. […]

Structure (SMILES)	Therapeutic Index [1]	Therapeutic Index [2]	Therapeutic Index [3]	Therapeutic Index ([2]; 40% Human AB serum)	Therapeutic Index ([3]; 40% Human AB serum)
CC(=O)O[C@@]12C[C@@H](C)[C@@]3(O)[C@@H](C=C(CO)C[C@]4(O)C(=O)C(C)=C[C@@H]34)[C@@H]1C2(C)C [SA-101A, 12-deoxyphorbol 13-acetate]	> 5.83	156	>20.1		
CC(=O)OC12CC(C)C3(O)C(C=C(COC(=O)CCC(=O)O)CC4(O)C(=O)C(C)=CC43)C1C2(C)C (centres unmarked) [SA-101B, Prostratin Succinate]				74.8	>1,361
